These compounds were tested on PrP^Sc in dividing ScN2a-cl3 cells. Settings: cell viability potency over ELISA potency.
Format: cell-based, mouse

Row | Structure (SMILES) | Calcein/ELISA Ratio
1 | CC(=O)c1ccc2c(c1)N(CCCN(C)C)c1ccccc1S2 [Acepromazine] | >1.44
2 | Nc1c(/N=N/c2ccc(-c3ccc(/N=N/c4cc(S(=O)(=O)O)c5ccccc5c4N)cc3)cc2)cc(S(=O)(=O)O)c2ccccc12 [Congo Red] | >22
3 | CN1C[C@H](C(=O)N[C@]2(C)O[C@@]3(O)[C@@H]4CCCN4C(=O)[C@H](Cc4ccccc4)N3C2=O)C[C@@H]2c3cccc4[nH]cc(c34)C[C@H]21 [Dihydroergotamine] | >1.55
4 | CCOc1ccc(/N=N/c2ccc(N)cc2N)cc1 [Ethoxazine] | >2.1
5 | COc1ccc2cc1Oc1ccc(cc1)C[C@H]1c3cc(c(OC)cc3CCN1C)Oc1c(OC)c(OC)cc3c1[C@H](C2)N(C)CC3 [Tetrandine] | 2.33
